This experiment has as its target serum of guinea-pigs immunized against peptide 141-159 (variant USA). Description: BIAcore competition; immobilised (c) FP-L as competitor; serum 1:10. For orientation: In SPR one partner is held on a chip, and binding of the other changes the refractive index at the surface.

Drawing on patent US7122193B1 (priority 1994, dated 2006), this text covers amount of inhibitor peptide required to inhibit by 50% the bonding for one substance.

“FP peptide (region 141-159 of VP1 of FMDV serotype A12, strain USA, with N-terminal cysteine), L form” showed an amount of inhibitor peptide required to inhibit by 50% the bonding of 25 µg.
